A mixed list of measured activities; the numbers were collected in NIAID ChemDB.

Common to all: whole-cell or culture tests; species: HIV-1; read by: cytopathic effect / MTT; endpoint: EC50

An empty or dashed field is not shown. Lines come from different laboratories, so protocols vary. a–b is a range or a potency band. ECn: concentration that inhibits the pathogen or its effect by n%.

compound,cells,strain,mutations,value
CCOC(=O)c1cc(-c2ccccc2)n(-c2cccc(N=[N+]=[N-])c2)c1C,MT-4,,,>176 µM
CC(C)CN(C[C@@H](O)[C@H](Cc1ccccc1)NC(=O)OCc1cncs1)S(=O)(=O)c1ccc2nc(NC(=O)CN3CCN(C)CC3)sc2c1,MT-4,R13025,,0.0166 µM
N#C[C@]1(CO)O[C@@H](n2cnc3c(N)nc(N)nc32)C[C@@H]1O,,LAI,,<0.03 µM
CN1c2ccccc2C2C1C=CC(=O)N2c1ccc(-c2noc(-c3cccc([N+](=O)[O-])c3)n2)cc1,MT-4,LAI,,>32 µM
CC(C)CN(C[C@@H](O)[C@H](Cc1ccccc1)NC(=O)O[C@H]1CO[C@H]2OCC[C@H]21)S(=O)(=O)c1ccc2nc(NC(=O)c3ccccn3)sc2c1,MT-4,IIIB,,0.0046 µM
Cc1ccccc1S(=O)(=O)c1c(C(N)=O)[nH]c2ccc(Cl)cc12,C8166,Efavirenz-resistant (RT K103R V179D P225H),RT-K103R V179D P225H,<2.6 µM
CN(C)CCN1C(=O)C2C3C=CC(C3=C(c3ccccc3)c3ccccc3)C2C1=O,MT-4,IIIB,,>26 µM
CCOC(=O)C1C/C(=C\c2cc(O)c(O)c(O)c2)C(=O)/C(=C/c2cc(O)c(O)c(O)c2)C1,MT-4,,,12.5 µM
CC(C)CN(C[C@@H](O)[C@H](Cc1ccccc1)NC(=O)OCc1cncs1)S(=O)(=O)c1ccc2nc(N(C)C(=O)CN(C)C)sc2c1,MT-4,IIIB,,0.0041 µM
Cc1cn([C@H]2C[C@H](CN=[N+]=[N-])[C@@H](CO)O2)c(=O)[nH]c1=O,MT-2,IIIB,,>100 µM
Nc1nc2c(ncn2C2CC(O)C(COP(O)(=S)OC3CC(n4cnc5c(=O)[nH]c(N)nc54)OC3COP(=O)(O)O)O2)c(=O)[nH]1,MT-4,IIIB,,>100 µM
O=C1/C(=C/c2cc(O)c(O)c(O)c2)CSC/C1=C\c1cc(O)c(O)c(O)c1,MT-4,,,20 µM
CCOC(=O)c1c(Cl)c(-c2ccccc2)n(COCCO)c1C,MT-4,,,>111 µM
CCOC(=O)c1cc(-c2cccc(OC)c2)n(-c2cccc(Br)c2)c1C,MT-4,,,>10 µM
CCNC(=O)c1cccn1S(=O)(=O)c1cc(Cl)ccc1[N+](=O)[O-],MT-4,IIIB,,>16.6 µM
Cc1cn([C@@H]2O[C@H](CO)[C@@H](CF)[C@H]2O)c(=O)[nH]c1=O,MT-2,IIIB,,>100 µM
Cc1ccc(S(=O)(=O)c2c(C(N)=O)[nH]c3ccc(Cl)cc23)c(C)c1,MT-4,N119 nevirapine-resistant (RT Y181C),RT-Y181C,0.15 µM
CN1C/C(=C\c2ccc([N+](=O)[O-])c(O)c2)C(=O)/C(=C/c2ccc([N+](=O)[O-])c(O)c2)C1,MT-4,,,>1.9 µM
COc1ccc(CCN2C(=O)/C(=C\c3ccc(N(C)C)cc3)N(CCc3ccc(OC)c(OC)c3)C2=S)cc1OC,MT-4,IIIB,,>17.7 µg/mL
CCc1c(C(C)c2c(F)cccc2F)nc(SC/C=C/c2ccc([N+](=O)[O-])cc2)[nH]c1=O,MT-4,NNRTI-resistant,RT-K103N,>575 µM
CC(C)CN(C[C@@H](O)[C@H](Cc1ccccc1)NC(=O)OCc1cncs1)S(=O)(=O)c1ccc2nc(N(C)C(=O)CN(C)CCCN3CCCC3)sc2c1,MT-4,R13080,,3.16 µM
CCOC(=O)c1c([N+](=O)[O-])c(-c2ccccc2)n(COCCO)c1-c1ccccc1,MT-4,,,>163 µM
CCc1nc(NCN2C(=O)C(=Nc3ccc(S(=O)(=O)Nc4ncnc(OC)c4OC)cc3)c3ccccc32)nc(N)c1-c1ccc(Cl)cc1,MT-4,LAI,,>2 µg/mL
O=C(O)c1c([N+](=O)[O-])c(-c2ccccc2)n(COCCO)c1-c1ccccc1,MT-4,,,>300 µM
CC(C)CN(C[C@@H](O)[C@H](Cc1ccccc1)NC(=O)OCc1cncs1)S(=O)(=O)c1ccc2nc(N(C)C(=O)CN3CCOCC3)sc2c1,MT-4,R13080,,0.6607 µM
O=C(O)CC1C/C(=C\c2cc(O)c(O)c(O)c2)C(=O)/C(=C/c2cc(O)c(O)c(O)c2)C1,MT-4,,,2 µM
COc1ncnc(NS(=O)(=O)c2ccc(N=C3C(=O)N(CN4CCCC4)c4ccc(C)cc43)cc2)c1OC,MT-4,LAI,,>22.6 µg/mL
COc1ccc(CCN2C(=O)/C(=C\c3cccc(Cl)c3)N(CCc3ccc(OC)c(OC)c3)C2=S)cc1OC,MT-4,IIIB,,>38.75 µg/mL
O=C1C2C3C=CC(C3=C(c3ccccc3)c3ccccc3)C2C(=O)N1CCN1CCCCC1,MT-4,IIIB,,>38 µM
COc1ncnc(NS(=O)(=O)c2ccc(N=C3C(=O)N(CN(C)C)c4ccccc43)cc2)c1OC,MT-4,LAI,,>1 µg/mL
N#Cc1c([N+](=O)[O-])c(-c2ccccc2)n(COCCO)c1-c1ccccc1,MT-4,,,>300 µM
O=C1CSC(c2c(Cl)cccc2Cl)N1c1ccccn1,MT-4,IIIB,,>14.7 µM
COc1ccc(CCN2C(=O)/C(=C\c3ccccc3Cl)N(CCc3ccc(OC)c(OC)c3)C2=S)cc1OC,MT-4,IIIB,,>23.1 µg/mL
CCCc1cc(=O)oc2c1=C1OC(C)(C)C=CC1C1O[C@H](C)[C@H](C)C(=O)C=21,CEM + CEM-SS,,,2.82 µM
C=Cc1cc(N(CC)CC)nc(SCc2ccc(OC)cc2)n1,MT-4,NNRTI-resistant,RT-K103N,3.8 µM
Cc1ccc(S(=O)(=O)c2c(C(N)=O)[nH]c3ccc(Cl)cc23)cc1,C8166,Efavirenz-resistant (RT K103R V179D P225H),RT-K103R V179D P225H,<93 µM
COc1ncnc(NS(=O)(=O)c2ccc(N=C3C(=O)N(CN4CCOCC4)c4ccccc43)cc2)c1OC,MT-4,LAI,,>1 µg/mL
COc1ccc(/C=C/CSc2nc(Cc3c(F)cccc3F)c(C)c(=O)[nH]2)cc1,MT-4,NNRTI-resistant,RT-Y181C,>393 µM
Nc1ccc(Cl)cc1S(=O)(=O)n1cccc1C(=O)Oc1ccccc1,MT-4,IIIB,,>24 µM
O=C(O)CC1C/C(=C\c2ccc(O)c(O)c2)C(=O)/C(=C/c2ccc(O)c(O)c2)C1,MT-4,,,>41 µM
Nc1nc2c(ncn2C2CC(O)C(COP(O)(=S)OC3CC(n4cnc5c(=O)[nH]c(N)nc54)OC3CO)O2)c(=O)[nH]1,MT-4,IIIB,,>50 µM
COc1ccc(CCN2C(=O)/C(=C\c3ccccc3-c3ccco3)N(CCc3ccc(OC)c(OC)c3)C2=S)cc1OC,MT-4,IIIB,,>17.35 µg/mL
CN1c2ccccc2C2C1C=C(c1noc(C(C)(C)C)n1)C(=O)N2c1ccc([N+](=O)[O-])cc1,MT-4,LAI,,<1 µM
COc1ncnc(NS(=O)(=O)c2ccc(N=C3C(=O)N(CN4CCCCC4)c4ccc(C)cc43)cc2)c1OC,MT-4,LAI,,>10.7 µg/mL
C=Cc1cc(N(CC)CC)nc(S(=O)(=O)Cc2ccc(OC)cc2)n1,MT-4,NNRTI-resistant,RT-Y181L,>42.9 µM
CCC(C)OC(=O)c1cccn1S(=O)(=O)c1cc(Cl)ccc1[N+](=O)[O-],MT-4,IIIB,,≥32.5 µM
Cc1cc(N)ccc1C(=O)N[C@@H](Cc1ccccc1)[C@H](O)CN(CC(C)C)S(=O)(=O)c1ccc2nc(NC(=O)CN3CCCC3)sc2c1,MT-4,LAI,,<0.05 µM
N#C[C@]1(CO)O[C@@H](n2cnc3c(=O)[nH]cnc32)C[C@@H]1O,,LAI,,0.0278 µM
COc1ccc(-c2nc(-c3ccc(N4C(=O)C=CC5C4c4ccccc4N5C)cc3)no2)cc1,MT-4,LAI,,1–32 µM
Cc1cc(C)cc(Oc2c(C(C)C)c(=O)[nH]c(=O)n2Cc2ccc3ccccc3c2)c1,MT-4,,,0.015 µg/mL
NC(=O)c1cccn1S(=O)(=O)c1ccccc1[N+](=O)[O-],MT-4,IIIB,,>200 µM
COc1ccc(CCN2C(=O)/C(=C\c3cccc(Br)c3)N(CCc3ccc(OC)c(OC)c3)C2=S)cc1OC,MT-4,IIIB,,>109.2 µg/mL
CCCc1cc(=O)oc2c3c(c4c(c12)OC(C)(C)CC4)O[C@H](C)[C@@H](C)C3=O,CEM + CEM-SS,,,2.93 µM
CC(C)CN(C[C@@H](O)[C@H](Cc1ccccc1)NC(=O)OCc1cncs1)S(=O)(=O)c1ccc2nc(N(C)C(=O)CN3CCN(C)CC3)sc2c1,MT-4,IIIB,,0.0056 µM
Cc1cn(CCO[C@H]2C=C[C@@H](CO)O2)c(=O)[nH]c1=O,MT-4,IIIB,,>29 µg/mL
CC(=O)OCCOCn1c(-c2ccccc2)c(-c2ccccc2)c([N+](=O)[O-])c1-c1ccccc1,MT-4,,,>300 µM
CCc1c(Cc2c(Cl)cccc2Cl)nc(SC/C=C/c2ccc(C#N)cc2)[nH]c1=O,MT-4,NNRTI-resistant,RT-Y188L,>34.82 µM
Cc1cn([C@H]2C[C@H](CF)[C@@H](CO)O2)c(=O)[nH]c1=O,MT-2,IIIB,,>100 µM
O=C1/C(=C/c2ccc(O)c(O)c2)CN(Cc2ccccc2)C/C1=C\c1ccc(O)c(O)c1,MT-4,,,>4.7 µM
CC(=O)OCCOCn1c(-c2ccccc2)c(Br)c(-c2ccccc2)c1-c1ccccc1,MT-4,,,>16 µM
CCOC(=O)c1cc2c3ccccc3c3ccc(N)cc3n2c1C,MT-4,,,>21 µM
Cc1cccc(C)c1OCC(=O)N[C@@H](Cc1ccccc1)[C@H](O)CN(CC(C)C)S(=O)(=O)c1ccc2nc(NC(=O)c3ccccn3)sc2c1,MT-4,R13025,,0.123 µM
N#CC1=CC2C(c3ccccc3N2CCc2cnc[nH]2)N(c2ccc([N+](=O)[O-])cc2)C1=O,MT-4,LAI,,1–32 µM
Nc1c(-c2ccccc2)c(-c2ccccc2)n(COCCO)c1-c1ccccc1,MT-4,,,>42 µM

Repeating the final 4 entries:

compound	cells	strain	mutations	value
CCOC(=O)c1cc2c3ccccc3c3ccc(N)cc3n2c1C	MT-4			>21 µM
Cc1cccc(C)c1OCC(=O)N[C@@H](Cc1ccccc1)[C@H](O)CN(CC(C)C)S(=O)(=O)c1ccc2nc(NC(=O)c3ccccn3)sc2c1	MT-4	R13025		0.123 µM
N#CC1=CC2C(c3ccccc3N2CCc2cnc[nH]2)N(c2ccc([N+](=O)[O-])cc2)C1=O	MT-4	LAI		1–32 µM
Nc1c(-c2ccccc2)c(-c2ccccc2)n(COCCO)c1-c1ccccc1	MT-4			>42 µM